According to patent publication US20070123537A1, “Quinazoline derivatives for the treatment of herpesviral infections” (GPC Biotech AG, priority 2003, published 2007):
The structures given here were assigned with low confidence; some may be wrong.

Chains of the proteins cited; added tags and fusions are not shown.
UniProt P16788, whole entry: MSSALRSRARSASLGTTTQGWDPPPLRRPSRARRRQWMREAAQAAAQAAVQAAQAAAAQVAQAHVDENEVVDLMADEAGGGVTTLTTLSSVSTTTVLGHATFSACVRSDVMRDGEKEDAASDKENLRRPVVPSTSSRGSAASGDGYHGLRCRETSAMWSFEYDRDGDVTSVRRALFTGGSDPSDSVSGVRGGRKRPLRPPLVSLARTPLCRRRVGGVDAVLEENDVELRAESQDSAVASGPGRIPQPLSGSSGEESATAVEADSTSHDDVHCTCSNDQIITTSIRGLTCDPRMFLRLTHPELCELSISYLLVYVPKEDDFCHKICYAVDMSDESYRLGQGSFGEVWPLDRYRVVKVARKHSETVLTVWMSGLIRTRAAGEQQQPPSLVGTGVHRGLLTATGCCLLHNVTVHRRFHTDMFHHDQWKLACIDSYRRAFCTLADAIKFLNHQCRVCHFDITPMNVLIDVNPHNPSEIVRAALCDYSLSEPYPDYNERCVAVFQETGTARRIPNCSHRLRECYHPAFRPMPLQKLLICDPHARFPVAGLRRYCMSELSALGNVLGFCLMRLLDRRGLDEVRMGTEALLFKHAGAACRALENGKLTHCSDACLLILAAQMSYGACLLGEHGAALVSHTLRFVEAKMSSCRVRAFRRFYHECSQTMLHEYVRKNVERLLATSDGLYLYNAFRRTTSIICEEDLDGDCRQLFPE

Experiments:
HCMV AD-169 = assay: HCMV infection of HFFs, reporter gene based antiviral assay; type: cell-based, Human Cytomegalovirus (HCMV); details: 3 μM compound, reporter gene activity after seven days
Description: To examine the effect of the quinazoline derivatives on HCMV replication, HCMV infections were performed in a cellular system.
Human foreskin fibroblasts (HFFs) were grown to subconfluency in 12 well plates and infected with 0.25 tissue culture infectious doses of HCMV AD-169 carrying a reporter gene (HCMV based antiviral assay). Quinazoline derivatives (stocks in DMSO (Dimethylsulfoxide)) were diluted in culture medium to the concentrations indicated and added to the cells immediately after virus adsorption. The success of infection (reporter gene expressing cells) and the lack of cytotoxicity of the compound (confluent cell layer) was monitored by microscopy. After seven days, cell layers were harvested, lysed and subjected to the automated fluorometry measurement of reporter gene activity. Each panel refers to a determination in quadruplicate (infection in duplicate, lysate preparation and measurement in duplicate).

viral kinase UL-97 = viral kinase UL-97 (Human cytomegalovirus, UniProt P16788); assay: UL97 Kinase-Assay on Immobilon Plate; type: biochemical
Description: UL97 Kinase-Assay on Immobilon Plate
The effect of quinazoline derivatives on the activity of the viral kinase UL-97 was tested. This kinase is derived from human cytomegalovirus (HCMV) (Marschall, M., et al., J. Gen Virol. 2001, 82,1439-1450.). The UL-97 gene was cloned into a baculovirus vector in order to produce GST (glutathione S-transferase) fusion protein. Insect cells (Sf9) were infected and GST-UL-97 purified via glutathione affinity columns according to standard procedures.
The UL-97 kinase reaction was performed as described (Marschall M. et aL, J. Gen. Virol. 2001, 82, 1439-1450). Briefly, 10 μl Assay buffer (3 μM ATP, 60 μg/ml myelin basic protein (MBP) as substrate), 1,0 μCi gamma[^33P]ATP and 10 μp, Basic buffer (20mM Tris-HCl 7.5, 500 μM MnCl2, 1 mM DTT (dithiothreitol)) were given to the test tube before adding various concentrations of the quinazoline derivatives. The reaction was started by adding 0.2 μl UL97 kinase, purified from infected Sf9-insect cells as described above. The total volume was adjusted with Basic buffer to a final volume of 30 μl. […]
Measuring Incorporation of Radioactivity
An Immobilon plate (Millipore) was rinsed with 50 μl methanol/well. […] After addition of 50 μl scintillation cocktail (Roth, Germany) per well incorporation of radioactivity was measured using a Betareader (Wallac) and enzymatic activity calculated.

UL 97 = UL 97 (Human cytomegalovirus, UniProt P16788); assay: UL 97 in-cell activity: protection of HEK 293 cells ectopically expressing UL 97 against toxic GCV; details: at 10 μM; HEK 293 cells expressing UL 97
Description: Furthermore, clinical isolates of HCMV like R5, R3 and R2 were used for the infection of HFFs in a plaque reduction assay under the conditions described above. Parallel experiments on phenotype characterization , gene sequencing and UL 97-in-cell-activity assay (GCV phosphorylation) with cloned UL 97 were performed (Marschall, M., et al., J. Gen Virol. 2001, 82, 1439-1450).
Furthermore, (IC50)-values of HCMV replication was measured for some compounds in a cellular system. Some quinazoline derivatives protect HEK 293 cells ectopially expressing UL 97 against toxic concentrations of GCV (10 and 20 μM respectively).

With `Brc1cccc(Nc2ncnc3ccccc23)c1` the “HCMV AD 169 Replication [%] of control at 3 μM” value (HCMV AD-169) was 70%, the “inhibition of UL 97-kinase activity (in words)” value (viral kinase UL-97) was “potent inhibitors” and the IC50 (viral kinase UL-97; read-out: UL 97 IC 50, 3 μM ATP, MBP substrate) was 0.4 µM. The “UL 97 GCV [%] growth at conc. [μM]” value (UL 97) was 47% 10 μM.
